This is an account of results in US20190127444A1, “Compositions and methods for anti-staphylococcal biologic agents” (NEW YORK UNIVERSITY, published 2019).

T1: LukE, recombinant polyhistidine-tagged variant (S. aureus)
T1 chain: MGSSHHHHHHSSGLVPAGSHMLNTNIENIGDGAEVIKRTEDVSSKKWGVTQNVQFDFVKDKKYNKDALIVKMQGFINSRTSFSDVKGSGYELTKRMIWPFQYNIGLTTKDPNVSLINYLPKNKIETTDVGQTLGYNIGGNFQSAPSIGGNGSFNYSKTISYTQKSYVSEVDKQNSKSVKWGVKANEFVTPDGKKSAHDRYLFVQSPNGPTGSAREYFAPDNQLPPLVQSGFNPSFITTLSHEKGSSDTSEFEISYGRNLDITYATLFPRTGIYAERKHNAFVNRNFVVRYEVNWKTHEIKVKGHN

B1: Luk26 LukE binding FN3 domain (designed binder)
chain: LPAPKNLVVSRVTEDSARLSWTAPDAAFDSFHIEYAEPWVWGEAIVLTVPGSERSYDLTGLKPGTEYVVFIGGVKGGHNSTPLSAIFTT
B2: Luk27 LukE binding FN3 domain (designed binder)
chain: LPAPKNLVVSRVTEDSARLSWTAPDAAFDSFPIVYQEWQFYGEAIVLTVPGSERSYDLTGLKPGTEYLVDIYGVKGGSWSYPLSAIFTT
B3: Luk38 LukE binding FN3 domain (designed binder)
chain: LPAPKNLVVSRVTEDSARLSWTAPDAAFDSFLIQYQESEKVGEAIVLTVPGSERSYDLTGLKPGTEYTVSIYGVELIYHGWLDFVFSNPLSAIFTT
B4: 3×2 linker variant of Construct 11 (bispecific antibody)
heavy: EVQLVETGGGLVKPGGSLRLSCSASRFSFRDYYMTWIRQAPGKGPEWVSHISGSGSTIYYADSVRGRFTISRDNAKSSLYLQMDSLQADDTAVYYCARGGRATSYYWVHWGPGTLVTVSSASTKGPSVFPLAPSSKSTSGGTAALGCLVKDYFPEPVTVSWNSGALTSGVHTFPAVLQSSGLYSLSSVVTVPSSSLGTQTYICNVNHKPSNTKVDKKVEPKSCDKTHTCPPCPAPPVAGPDVFLFPPKPKDTLMISRTPEVTCVVVDVSHEDPEVKFNWYVDGVEVHNAKTKPREEQYNSTYRVVSVLTVLHQDWLNGKEYKCKVSNAALPAPIAKTISKAKGQPREPQVYTLPPSRDELTKNQVSLTCLVKGFYPSDIAVEWESNGQPENNYKTTPPVLDSDGSFFLYSKLTVDKSRWQQGNVFSCSVMHEALHNRFTQKSLSLSPGKGGGGSGGGGSGGGGSMLPAPKNLVVSRVTEDSARLSWTAPDAAFDSFHIEYAEPWVWGEAIVLTVPGSERSYDLTGLKPGTEYVVFIGGVKGGHNSTPLSAIFTTGGGGSGGGGSMLPAPKNLVVSRVTEDSARLSWTAPDAAFDSFWITYEEKFYRGEAIVLTVPGSERSYDLTGLKPGTEYKVWIVGVKGGQGSWPLSAIFTT
light: not shown
B5: 3×3 linker variant of Construct 11 (bispecific antibody)
heavy: EVQLVETGGGLVKPGGSLRLSCSASRFSFRDYYMTWIRQAPGKGPEWVSHISGSGSTIYYADSVRGRFTISRDNAKSSLYLQMDSLQADDTAVYYCARGGRATSYYWVHWGPGTLVTVSSASTKGPSVFPLAPSSKSTSGGTAALGCLVKDYFPEPVTVSWNSGALTSGVHTFPAVLQSSGLYSLSSVVTVPSSSLGTQTYICNVNHKPSNTKVDKKVEPKSCDKTHTCPPCPAPPVAGPDVFLFPPKPKDTLMISRTPEVTCVVVDVSHEDPEVKFNWYVDGVEVHNAKTKPREEQYNSTYRVVSVLTVLHQDWLNGKEYKCKVSNAALPAPIAKTISKAKGQPREPQVYTLPPSRDELTKNQVSLTCLVKGFYPSDIAVEWESNGQPENNYKTTPPVLDSDGSFFLYSKLTVDKSRWQQGNVFSCSVMHEALHNRFTQKSLSLSPGKGGGGSGGGGSGGGGSMLPAPKNLVVSRVTEDSARLSWTAPDAAFDSFHIEYAEPWVWGEAIVLTVPGSERSYDLTGLKPGTEYVVFIGGVKGGHNSTPLSAIFTTGGGGSGGGGSGGGGSMLPAPKNLVVSRVTEDSARLSWTAPDAAFDSFWITYEEKFYRGEAIVLTVPGSERSYDLTGLKPGTEYKVWIVGVKGGQGSWPLSAIFTT
light: not shown
B6: 1×4 linker variant of Construct 11 (bispecific antibody)
heavy: EVQLVETGGGLVKPGGSLRLSCSASRFSFRDYYMTWIRQAPGKGPEWVSHISGSGSTIYYADSVRGRFTISRDNAKSSLYLQMDSLQADDTAVYYCARGGRATSYYWVHWGPGTLVTVSSASTKGPSVFPLAPSSKSTSGGTAALGCLVKDYFPEPVTVSWNSGALTSGVHTFPAVLQSSGLYSLSSVVTVPSSSLGTQTYICNVNHKPSNTKVDKKVEPKSCDKTHTCPPCPAPPVAGPDVFLFPPKPKDTLMISRTPEVTCVVVDVSHEDPEVKFNWYVDGVEVHNAKTKPREEQYNSTYRVVSVLTVLHQDWLNGKEYKCKVSNAALPAPIAKTISKAKGQPREPQVYTLPPSRDELTKNQVSLTCLVKGFYPSDIAVEWESNGQPENNYKTTPPVLDSDGSFFLYSKLTVDKSRWQQGNVFSCSVMHEALHNRFTQKSLSLSPGKGGGGSMLPAPKNLVVSRVTEDSARLSWTAPDAAFDSFHIEYAEPWVWGEAIVLTVPGSERSYDLTGLKPGTEYVVFIGGVKGGHNSTPLSAIFTTGGGGSGGGGSGGGGSGGGGSMLPAPKNLVVSRVTEDSARLSWTAPDAAFDSFWITYEEKFYRGEAIVLTVPGSERSYDLTGLKPGTEYKVWIVGVKGGQGSWPLSAIFTT
light: not shown
B7: 3×4 linker variant of Construct 11 (bispecific antibody)
heavy: EVQLVETGGGLVKPGGSLRLSCSASRFSFRDYYMTWIRQAPGKGPEWVSHISGSGSTIYYADSVRGRFTISRDNAKSSLYLQMDSLQADDTAVYYCARGGRATSYYWVHWGPGTLVTVSSASTKGPSVFPLAPSSKSTSGGTAALGCLVKDYFPEPVTVSWNSGALTSGVHTFPAVLQSSGLYSLSSVVTVPSSSLGTQTYICNVNHKPSNTKVDKKVEPKSCDKTHTCPPCPAPPVAGPDVFLFPPKPKDTLMISRTPEVTCVVVDVSHEDPEVKFNWYVDGVEVHNAKTKPREEQYNSTYRVVSVLTVLHQDWLNGKEYKCKVSNAALPAPIAKTISKAKGQPREPQVYTLPPSRDELTKNQVSLTCLVKGFYPSDIAVEWESNGQPENNYKTTPPVLDSDGSFFLYSKLTVDKSRWQQGNVFSCSVMHEALHNRFTQKSLSLSPGKGGGGSGGGGSGGGGSMLPAPKNLVVSRVTEDSARLSWTAPDAAFDSFHIEYAEPWVWGEAIVLTVPGSERSYDLTGLKPGTEYVVFIGGVKGGHNSTPLSAIFTTGGGGSGGGGSGGGGSGGGGSMLPAPKNLVVSRVTEDSARLSWTAPDAAFDSFWITYEEKFYRGEAIVLTVPGSERSYDLTGLKPGTEYKVWIVGVKGGQGSWPLSAIFTT
light: not shown
B8: Luk26W41A (designed binder)
chain: LPAPKNLVVSRVTEDSARLSWTAPDAAFDSFHIEYAEPWVAGEAIVLTVPGSERSYDLTGLKPGTEYVVFIGGVKGGHNSTPLSAIFTT
B9: Luk26F70A (designed binder)
chain: LPAPKNLVVSRVTEDSARLSWTAPDAAFDSFHIEYAEPWVWGEAIVLTVPGSERSYDLTGLKPGTEYVVAIGGVKGGHNSTPLSAIFTT
B10: Luk26W39A (designed binder)
chain: LPAPKNLVVSRVTEDSARLSWTAPDAAFDSFHIEYAEPAVWGEAIVLTVPGSERSYDLTGLKPGTEYVVFIGGVKGGHNSTPLSAIFTT
B11: Luk26E34A (designed binder)
chain: LPAPKNLVVSRVTEDSARLSWTAPDAAFDSFHIAYAEPWVWGEAIVLTVPGSERSYDLTGLKPGTEYVVFIGGVKGGHNSTPLSAIFTT
B12: Luk26G72A (designed binder)
chain: LPAPKNLVVSRVTEDSARLSWTAPDAAFDSFHIEYAEPWVWGEAIVLTVPGSERSYDLTGLKPGTEYVVFIAGVKGGHNSTPLSAIFTT
B13: Luk27W79A (designed binder)
chain: LPAPKNLVVSRVTEDSARLSWTAPDAAFDSFPIVYQEWQFYGEAIVLTVPGSERSYDLTGLKPGTEYLVDIYGVKGGSASYPLSAIFTT
B14: Luk27W38A (designed binder)
chain: LPAPKNLVVSRVTEDSARLSWTAPDAAFDSFPIVYQEAQFYGEAIVLTVPGSERSYDLTGLKPGTEYLVDIYGVKGGSWSYPLSAIFTT
B15: Luk27Y81A (designed binder)
chain: LPAPKNLVVSRVTEDSARLSWTAPDAAFDSFPIVYQEWQFYGEAIVLTVPGSERSYDLTGLKPGTEYLVDIYGVKGGSWSAPLSAIFTT
B16: Luk27Y72A (designed binder)
chain: LPAPKNLVVSRVTEDSARLSWTAPDAAFDSFPIVYQEWQFYGEAIVLTVPGSERSYDLTGLKPGTEYLVDIAGVKGGSWSYPLSAIFTT
B17: Luk27D70A (designed binder)
chain: LPAPKNLVVSRVTEDSARLSWTAPDAAFDSFPIVYQEWQFYGEAIVLTVPGSERSYDLTGLKPGTEYLVAIYGVKGGSWSYPLSAIFTT
B18: Luk27L68A (designed binder)
chain: LPAPKNLVVSRVTEDSARLSWTAPDAAFDSFPIVYQEWQFYGEAIVLTVPGSERSYDLTGLKPGTEYAVDIYGVKGGSWSYPLSAIFTT

The target of the first test is T1, LukE, recombinant polyhistidine-tagged …. Nature of the test: ELISA on LukE and neutralisation assay.
B1: the binding result is on record as “binds”. On the same count and under the same terms, the entry for B2 is “binds”; for B3 it is “binds”.

The next test has the same target. Nature of the test: ELISA, biotinylated toxin on streptavidin plate.
In the case of B4, the binding result is “binds”. On the same count and under the same terms, with B5 the entry was “binds”; with B6, “binds”.

In the case of B7, the binding result is “binds”.

The target is the same in a further test. Nature of the test: ELISA, biotinylated LukE on streptavidin plate.
Regarding B8, the binding result was “no binding (tested: 1 µM)”.

Regarding B9, the binding result is “binds”. On the same count and under the same terms, the entry for B10 is “no binding (tested: 1 µM)”; for B11 it is “binds”; for B12 it is “binds”. With B13, the binding result is “binds”. Same read-out and setting: the entry for B14 is “binds”; for B15 it is “binds”; for B16 it is “binds”. Regarding B17, the binding result was “no binding (tested: 1 µM)”.

In the case of B18, the binding result was “binds”.
